{"source": "patent US20250011397A1", "about": "(HOSPITAL FOR SICK CHILDREN, published 2025)", "binders": {"B1": {"name": "VHH-72 human apoferritin fusion (24-mer) (other)", "chain": "QVQLQESGGGLVQAGGSLRLSCAASGRTFSEYAMGWFRQAPGKEREFVATISWSGGSTYYTDSVKGRFTISRDNAKNTVYLQMNSLKPDDTAVYYCAAAGLGTVVSEWDYDYDYWGQGTQVTVSGGGGSGGGGSGGGGSGGGGSGGGGSGGGSSQIRQNYSTDVEAAVNSLVNLYLQASYTYLSLGFYFDRDDVALEGVSHFFRELAEEKREGYERLLKMQNQRGGRALFQDIKKPAEDEWGKTPDAMKAAMALEKKLNQALLDLHALGSARTDPHLCDFLETHFLDEEVKLIKKMGDHLTNLHRLGGPEAGLGEYLFERLTLRHD"}}, "key": {"[1]": {"target": "T1, SARS-CoV-2 Spike on HIV-based pseudotyped virus (Spike plasmid BEI NR52310) (SARS-CoV-2)", "assay": "cell-based or functional assay"}, "[2]": {"target": "T1, SARS-CoV-2 Spike on HIV-based …", "assay": "cell-based or functional assay", "remark": "listed apart in the source"}}, "data": [{"binder": "B1", "values": [{"measurement": "Median IC50 (PsV neutralization)", "setting": "[1]", "result": 0.13, "unit": "pM"}, {"measurement": "fold increase in neutralization potency against PsV compared to the Fc fusion", "setting": "[2]", "result": "~10000", "unit": "fold"}]}]}
